A mixed list of measured activities; the numbers were collected in NIAID ChemDB.

Shared fields: growth or infection tests; organism: Aspergillus niger; endpoint: zone

An empty or dashed field is not shown. Zone: diameter of growth inhibition. Rows are shuffled and stem from different studies.

structure | dose | method | strain | result
C[C@@H]1[C@H](O)[C@@H](C)/C=C/C=C/CC/C=C/C=C/C=C/C=C/C(O[C@H]2O[C@H](C)[C@@H](O)[C@H](N)[C@@H]2O)CC2O[C@](O)(CC(O)C(O)CCC(O)CC(O)CC(O)CC(=O)O[C@H]1C)CC(O)C2C(=O)O | 10 µg/disc | agar diffusion | MTCC 2723 | 23 mm
Cc1nc2ccc(Br)cc2c(=O)n1-c1ccccc1Br | 50 µg/mL | agar diffusion / agar |  | 23.07 mm
Cc1ccc(N2NOC(=O)C2S(=O)(=O)Nc2ccc(-n3c(-c4ccccc4)nc4ccccc4c3=O)cc2)cc1 | 250 µg/mL | agar diffusion | MTCC 282 | 20 mm
Cc1ccc2nc(Cl)c(CNc3ccccc3C)cc2c1 | 200 µg/mL | agar diffusion | MTCC 281 | 8.06 mm
COc1ccc(-c2oc3ccc(Cl)cc3c(=O)c2OC(C)=O)cc1OC | 100 µg/mL | agar diffusion |  | 19 mm
CCCCC(CC)COC(=O)c1ccccc1C(=O)OCC(CC)CCCC | 10000 µg/mL | agar diffusion / agar |  | 0.64 mm
Cc1ccc(N2NOC(=O)C2S(=O)(=O)Nc2ccc(-n3c(-c4c(Cl)cccc4[N+](=O)[O-])nc4ccccc4c3=O)cc2)cc1 | 250 µg/mL | agar diffusion | MTCC 282 | 18 mm
Nc1ccc(S(N)(=O)=O)cc1 | 25 µg/mL | agar diffusion / agar |  | 24 mm
COc1ccccc1-n1c(C)nc2ccc(Br)cc2c1=O | 50 µg/mL | agar diffusion / agar |  | 16.58 mm
Cc1ccc2nc(Cl)c(CNc3ccccc3)cc2c1 | 200 µg/mL | agar diffusion | MTCC 281 | 9.47 mm
Cc1ccc(N2NOC(=O)C2S(=O)(=O)Nc2nc3cc(F)ccc3s2)cc1 | 250 µg/mL | agar diffusion | MTCC 282 | 19 mm
O=C(O)/C=C/c1ccccc1 | 10000 µg/mL | agar diffusion / agar |  | 0.65 mm
C[C@H]1[C@H](O)[C@@H](C)/C=C/C=C/C=C/C=C/C=C/C=C/C=C/[C@H](O[C@@H]2O[C@H](C)[C@@H](O)[C@H](N)[C@@H]2O)C[C@@H]2O[C@](O)(C[C@@H](O)C[C@@H](O)CC[C@H](O)[C@@H](O)C[C@@H](O)CC(=O)O[C@H]1C)C[C@H](O)[C@H]2C(=O)O | 10 µg/mL | agar diffusion / agar |  | 29 mm
O=C1NC(=O)C(=Cc2cn(-c3ccccc3)nc2-c2cc3ccccc3oc2=O)C(=O)N1 | 150 µg | agar diffusion / agar |  | 0 mm
O=c1c(O)c(-c2ccccc2)oc2ccccc12 | 100 µg/mL | agar diffusion |  | 12 mm
C(/C=C/c1ccccc1)=NCCNCCN=C/C=C/c1ccccc1.[Br][Hg][Br] | 20000 µg/mL | agar diffusion |  | 25 mm
Cc1cc(CBr)nc(Nc2ccccc2)n1 | 10 µg/mL |  |  | 1.5 mm
CC(=O)Oc1c(-c2ccccc2)oc2ccc(Cl)cc2c1=O | 100 µg/mL | agar diffusion |  | 19 mm
C(/C=C/c1ccccc1)=NCCNCCN=C/C=C/c1ccccc1.[Cl][Hg][Cl] | 20000 µg/mL | agar diffusion |  | 24 mm
Cc1ccc(N2NOC(=O)C2S(=O)(=O)Nc2nc3ccc(C)cc3s2)cc1 | 250 µg/mL | agar diffusion | MTCC 282 | 19 mm
CC(=O)Oc1c(-c2ccc(N(C)C)cc2)oc2ccc(Cl)cc2c1=O | 100 µg/mL | agar diffusion |  | 14 mm
CCC(C)n1ncn(-c2ccc(N3CCN(c4ccc(OC[C@H]5CO[C@](Cn6cncn6)(c6ccc(Cl)cc6Cl)O5)cc4)CC3)cc2)c1=O | 150 µg/mL | agar diffusion | ATCC 6275 | 13 mm
COc1cc2occc2c2oc(-c3ccccc3)cc(=O)c12 | 50 µg/disc | agar diffusion |  | 18 mm
NC(=O)c1ccc(Cc2cn(CCc3ccccc3)c(=O)n(Cc3ccccc3)c2=O)cc1 | 50000 µg/mL | agar diffusion / agar |  | 1.02 mm
CC(C)(CN=C/C=C/c1ccccc1[N+](=O)[O-])CN=C/C=C/c1ccccc1[N+](=O)[O-] | 2.5 mg/disc | agar diffusion |  | 0.8 mm
Cc1cc(C)nc(Nc2ccccc2)n1 | 10 µg/mL |  |  | 2.6 mm
Cc1ccc2nc(Cl)c(CNc3ccc(Cl)c(Cl)c3)cc2c1 | 200 µg/mL | agar diffusion | MTCC 281 | 15.86 mm
O=C1NC(=S)NC(=O)C1=Cc1cn(-c2ccccc2)nc1-c1cc2ccc3ccccc3c2oc1=O | 150 µg | agar diffusion / agar |  | 0 mm
O=c1cc(-c2ccc3c(c2)OCO3)oc2c1ccc1occc12 | 50 µg/disc | agar diffusion |  | 16 mm
CC(=O)Oc1c(-c2ccc(C)cc2)oc2ccccc2c1=O | 100 µg/mL | agar diffusion |  | 13 mm
Cc1nc2ccc(Br)cc2c(=O)n1-c1ccc([N+](=O)[O-])cc1 | 50 µg/mL | agar diffusion / agar |  | 17.96 mm
O=C1NC(=O)C(=Cc2cn(-c3ccccc3)nc2-c2cc3cc(Br)cc(Br)c3oc2=O)C(=O)N1 | 150 µg | agar diffusion / agar |  | 10 mm
Cc1ccc(N2NOC(=O)C2S(=O)(=O)Nc2nc(-c3ccc(Cl)cc3Cl)cs2)cc1 | 250 µg/mL | agar diffusion | MTCC 282 | 20 mm
COc1ccc(-c2oc3ccc(Cl)cc3c(=O)c2O)cc1OC | 100 µg/mL | agar diffusion |  | 16 mm
O=C1NC(=S)NC(=O)C1=Cc1cn(-c2ccccc2)nc1-c1cc2cc(Cl)ccc2oc1=O | 100 µg | agar diffusion / agar |  | 0 mm
Cc1ccc([O][Hg][Cl])c(/C=N/NC(=O)Nc2nc(-c3ccccc3)cs2)c1 | 100 µg/mL | agar diffusion |  | 20 mm
Cc1cccc(NCc2cc3cc(C)ccc3nc2Cl)c1 | 200 µg/mL | agar diffusion | MTCC 281 | 7.5 mm
Nc1ccc(S(N)(=O)=O)cc1 | 25 µg/mL | agar |  | 24 mm
CC(C)CCCCCOC(=O)c1ccccc1C(=O)OCCCCCC(C)C | 10000 µg/mL | agar diffusion / agar |  | 0 mm
Cc1ccc2nc(Cl)c(CNc3ccc(Cl)cc3)cc2c1 | 200 µg/mL | agar diffusion | MTCC 281 | 13.76 mm
Cc1nc(Nc2ccccc2)nc(C)c1Br | 1000 µg/mL |  |  | 2.9 mm
O=C1NC(=S)NC(=O)C1=Cc1cn(-c2ccccc2)nc1-c1cc2ccccc2oc1=O | 150 µg | agar diffusion / agar |  | 0 mm
Cc1ccc2nc(Cl)c(CNc3ccc([N+](=O)[O-])cc3)cc2c1 | 200 µg/mL | agar diffusion | MTCC 281 | 8.03 mm
CC(C)(C)c1ccc(O)c(C(C)(C)C)c1 | 50000 µg/mL | agar diffusion / agar |  | 0.86 mm
O=C(/C=C/c1ccc2c(c1)OCO2)c1ccc2occc2c1O | 50 µg/disc | agar diffusion |  | 0 mm
C[C@@H]1O[C@@H](OC[C@H]2O[C@@H](Oc3ccc(-c4oc5cc(O)cc(O)c5c(=O)c4O)cc3)[C@H](O)[C@@H](O)[C@@H]2O)[C@H](O)[C@H](O)[C@H]1O | 10000 µg/mL | agar diffusion / agar |  | 0 mm
Cc1nc2ccc(Br)cc2c(=O)n1-c1ccccc1[N+](=O)[O-] | 50 µg/mL | agar diffusion / agar |  | 18.68 mm

Repeating the final 3 entries:

structure,dose,method,strain,result
O=C(/C=C/c1ccc2c(c1)OCO2)c1ccc2occc2c1O,50 µg/disc,agar diffusion,,0 mm
C[C@@H]1O[C@@H](OC[C@H]2O[C@@H](Oc3ccc(-c4oc5cc(O)cc(O)c5c(=O)c4O)cc3)[C@H](O)[C@@H](O)[C@@H]2O)[C@H](O)[C@H](O)[C@H]1O,10000 µg/mL,agar diffusion / agar,,0 mm
Cc1nc2ccc(Br)cc2c(=O)n1-c1ccccc1[N+](=O)[O-],50 µg/mL,agar diffusion / agar,,18.68 mm